Target: NA of A/Texas/12/2007 (H3N2 119E) (Influenza A virus (A/Texas/12/2007(H3N2)), UniProt D1FVK3)
Details: control virus A/Texas/12/2007 (H3N2 119E); reference

oseltamivir carboxylate
Fold change: 1 fold

From article PMC6604316 (Virology Journal, 2019)
